Anti-infective test results gathered from many reports (values: NIAID ChemDB through PubChem).

Common to all: growth or infection tests; agent: Hepatitis B virus; method: PCR; endpoint: EC50

Two numbers with a dash give a range or band. Conditions beyond the fields shown may differ between rows. ECn is the concentration giving n% inhibition of infection, replication or growth. Blank or dashed fields: not listed here.

compound | conditions | strain or isolate | cell line | value
COC(=O)[C@]1(O)C[C@@H](O)[C@@H](O)[C@H](OC(=O)/C=C/c2ccc(O)c(O)c2)C1 | - | - | HepG2.2.15 | 272.3 µM
CC1=CO[C@@H]2OC3(C)CC[C@H]4[C@H](C)CCC1[C@@]24OO3 | - | - | - | <0.1 µM
C=C1[C@H](CO)[C@@H](O)C[C@@H]1n1cnc2c(=O)[nH]c(N)nc21 | - | Genotype D | HepG2 2.2.15 | 0.0018 µM
CC(=O)[C@]1(O)CC[C@@]2(O)[C@]1(C)[C@H](OC(=O)/C=C(\C)C(C)C)CC1[C@@]3(C)CC[C@H](OC(=O)/C=C/c4ccccc4F)CC3=CC[C@]12O | - | - | HepG2.2.15 | 40.62 µM
Nc1cc(OCCOCP(=O)(O)O)nc(=O)[nH]1 | - | - | HEPAD79 | >300 µM
O=C(O)c1ccc(O)cc1 | - | - | HepG2.2.15 | 275 µM
COc1cc(NC(=O)Nc2cccc(CNC(=O)O[C@H]3CCOC3)c2)ccc1-c1cnco1 | - | - | HepG2 2.2.15 | 0.4 µM
COc1cc(C=O)cc(OC)c1O | - | - | HepG2.2.15 | 3720 µM
O=C(/C=C/C=C/c1ccc([N+](=O)[O-])cc1)[Se]c1ccccc1 | - | - | HepG2.2.15 | 4.2 µM
O=C(/C=C/c1ccc(O)c(O)c1)OC1[C@@H](O)CC(O)(C(=O)O)C[C@@H]1O | - | - | HepG2.2.15 | 13.7 µM
O=c1ccc2ccccc2[se]1 | - | - | HepG2.2.15 | >50 µM
CCOC(=O)C1=C(CN2CCO[C@H]3CN(CC(C)(C)C(=O)O)C[C@H]32)NC(c2nccs2)=N[C@H]1c1cccc(F)c1C | - | Genotype D ayw3 | HepG2 2.2.15 | 0.081 µM
COc1ccc(CN=C2NC3=C(CCN(C(=O)c4ccc(Br)c(Cl)c4)C3)S(=O)(=O)N2c2ccccc2)cc1 | - | Genotype D | HepG2.117 | >1 µM
COc1ccc([C@H]2OC[C@H]3[C@@H]2CO[C@@H]3c2cc(OC)c(O)c(OC)c2)cc1O | - | - | HepG2.2.15 | 9.38 µM
Nc1cc(OCCOCP(=O)(O)O)nc(N)n1 | - | - | HepAD38 | 0.3 µM
COc1cc(O)c2c(=O)c(O)c(-c3ccc(O)cc3)oc2c1 | - | - | HepG2.2.15 | 491 µM
CC(C)N=C1NC2=C(CCN(C(=O)c3ccc(Br)c(Cl)c3)C2)S(=O)(=O)N1Cc1ccccc1 | - | Genotype D | HepG2.117 cells | >1 µM
COc1ccc(Cn2c(=O)c3c(n4ncc(Br)c24)CN(C(=O)OC(C)(C)C)CC3)cc1 | - | - | HepG2.117 | 0.1–0.5 µM
O=C(/C=C/c1ccc(O)c(O)c1)O[C@@H]1[C@@H](OC(=O)/C=C/c2ccc(O)c(O)c2)C[C@@](O)(C(=O)O)C[C@@H]1O | - | - | HepG2.2.15 | 6.1 µM
O=C1CCc2ccccc2[Se]1 | - | - | HepG2.2.15 | >50 µM
COC(=O)[C@]1(O)C[C@H](OC(=O)/C=C/c2ccc(O)c(O)c2)[C@@H](O)[C@@H](O)C1 | - | - | HepG2.2.15 | 144.7 µM
Nc1ncnc2c1ncn2CCOCP(=O)(O)O | - | - | HepG2 | 169 µM
COc1ccc(/C=C/C=C/C(=O)[Se]c2ccccc2)cc1 | - | - | HepG2.2.15 | 32 µM
CC(C)=CC/C=C(/C)[C@H]1CC[C@]2(C)[C@@H]1[C@H](O)C[C@@H]1[C@@]3(C)CC[C@H](O)C(C)(C)[C@@H]3[C@@H](OC3OC(CO)C(O)C(O)C3O)C[C@]12C | 4 d | - | HepG2.2.15 | 5.572 µM
O=C(/C=C/c1ccc(O)c(O)c1)[Se]c1ccccc1 | - | - | HepG2.2.15 | 2.4 µM
Nc1nc(OCCOCP(=O)(O)O)cc(=O)[nH]1 | - | - | HEPAD79 | 0.9 µM
COc1ccc(N2C(=NC(C)C)NC3=C(CCN(C(=O)c4ccc(Br)c(Cl)c4)C3)S2(=O)=O)c(Cl)c1 | - | Genotype D | HepG2.117 cells | 0.1–1 µM
O=C(CCc1ccccc1)[Se]c1ccccc1 | - | - | HepG2.2.15 | 2.8 µM

Repeating the final 4 entries:

compound,conditions,strain or isolate,cell line,value
O=C(/C=C/c1ccc(O)c(O)c1)[Se]c1ccccc1,-,-,HepG2.2.15,2.4 µM
Nc1nc(OCCOCP(=O)(O)O)cc(=O)[nH]1,-,-,HEPAD79,0.9 µM
COc1ccc(N2C(=NC(C)C)NC3=C(CCN(C(=O)c4ccc(Br)c(Cl)c4)C3)S2(=O)=O)c(Cl)c1,-,Genotype D,HepG2.117 cells,0.1–1 µM
O=C(CCc1ccccc1)[Se]c1ccccc1,-,-,HepG2.2.15,2.8 µM